# Results: patent US20200267989A1, “PARASITE TREATMENT COMPOUND” (University of Maine System Board of Trustees, priority 2017, published 2020)
# “And” between values parts separate entries of the source, which are not always exact repeats. Identical values can stand only once. Some results come without the dose or concentration used.
# Tested on: sea lice
# Assay: Pilot laboratory trial: KCl pre-treatment plus mechanical devices for removal of sea lice from Atlantic salmon
# Format: in vivo
# Experimental: A pilot laboratory trial was run using various forms of mechanical devices for removal of sea lice from Atlantic salmon (ATS). The effectiveness of the mechanical devices at removing/detaching lice was measured with and without KCl pretreatment, and the results compared.
# The experiment consisted of testing 3 mechanical devices on lice infested Atlantic salmon (ATS) in seawater and then on lice infested Atlantic salmon that had been pre-treated in seawater with KCL at 4 part per thousand (PPT) or 2 PPT for 5 or 15 minutes. The mechanical treatment referred to as Treatment A in Table 1 was a water spray apparatus including multiple jets in a roughly circular arrangement, and treatments B and C in Table 1 were alternative mechanical treatments. Each treatment group was run separately with two fish were staggered by 15 minutes to facilitate counting lice, except for Treatment C as both fish were placed together. The treatment groups were as follows: • 1) Treatment A with seawater (2 fish) • 2) Treatment A with sea water plus KCL 4 PPT, 15 minutes (2 fish) • 3) Treatment B with seawater (2 fish) • 4) Treatment B with sea water plus KCL 4 PPT, 15 minutes (2 fish) • 5) Treatment A with seawater plus 2PPT, 15 minutes (1 fish) • 6) Treatment A with sea water plus KCL 4 PPT, 5 minutes (1 fish) • 7) Treatment C with seawater (2 fish) • 8) Treatment C sea water plus KCL 2 PPT (2 fish)
# Each treatment group was performed essentially as follows:
# Pre-Treatment before Treatment A, B, or C • 1) Take 1 fish and transfer it to Tank 1 (70 liter tank); • 2) Take 1 fish and transfer it to Tank 2, staggered (70 liter tank); • 3) Both tanks will be filled with seawater for Round 1 of a treatment group and seawater and KC1 4PPT X for Round 2 for a treatment; • 4) Fish swim around freely in treatment Tank 1 for 30 minutes; • 5) Fish swim around freely in treatment Tank 2 for 30 minutes;
# Evaluation of Pretreatment: • 1) Remove Fish from Tank 1; • 2) Place 1 Fish in Sedation Tank; • 3) Count detached lice in Tank 1; • 4) Remove 1 Fish from Sedation Tank; • 5) Count numbers of Lice on each fish (making sure to differentiate between the two tanks); • 6) Repeat for staggered Tank 2.
# Perform Mechanical Treatment: • 1) Pass fish through mechanical treatments (A, B or C) • 2) Count lice on fish
smiles,measurement,setting,value
"[Cl-].[K+] [KCl, potassium chloride]",Sealice counts: Total,"Mechanical Treatment A, KCl 2 PPT in seawater, treatment time 15 min",115
same,Sealice counts: Total,"Mechanical Treatment A, KCl 4 PPT in seawater, treatment time 5 min",145
same,Sealice counts: Total,"Mechanical Treatment A, KCl 4 PPT in seawater, treatment time 15 min",108 and 116
same,Sealice counts: Total,"Mechanical Treatment B, KCl 4 PPT in seawater, treatment time 15 min",96 and 91
